Source: publication PMC8637272

Columns and labels:
[1] = target: T1, enolase (ENO) (Mycoplasma gallisepticum S6) (UniProt A0A0F6CKZ5); test: AFM; conditions: high-molecular fibril-like complexes; AFM: 20 mM Tris-HCl pH 7.5 (Methods); recombinant protein; residues 1-475; label: 5'-6-FAM on forward strand; probe letters rebuilt from the primers and the genome
[2] = target: T1, enolase (ENO) (Mycoplasma gallisepticum S6); test: EMSA; conditions: EMSA: 20 mM carbonate buffer pH 9.8, 6% glycerol, 2.5 pmol FAM-DNA, 10 min 37 C, 6% acrylamide gel at 10 C, recombinant protein, residues 1-475, label: 5'-6-FAM on forward strand, probe letters rebuilt from the primers and the genome

CGCTTCTTTTAACAATCCAGCAATCTTATTTACATGTTCAATCTTTTTTTGAATAATTGCTTTCATTGTGTATTTAAAATTCAATTAGTAAAGTGAAAACAATAACAAAGATTGTTATTAGATATGGTTATCTAACCTACATAACGAATTAAGGAAATCAAGTGATTTACCAGTTATGGTCTTTGGTTATTGCTTTAATAGTATATCATTCTTTACTTTATTTTTAAAGTATTCTTATGGAATTAGCTATCTTCACTTAAATTCTACTAAACACCACTACATCTGAACATGTCAG (double strand) [PrplJ]
binding result [1]: binds

GGTGAATGCTTTTTCGATGAACTTTTTAATTCAGTAAAATTTCGAATTTTTTAAACTGGTGGTTTAAAAAATTTTTTATCAATTATTAATAATAATATTAAAATTAAAAACGAGAGTTAATTCAAAATATAAACTATAAAGAAAGAGAAAACTTAAATGTCAAAAATTAAAATTGGTATTAACGGGTTCGGACGC (double strand) [Pgapd]
Kd ([2]; Hill n 2.7 +/- 0.8): 1100 nM

TTTGGTTTATTTAAATACCACAAGAAAAAAATTCGCGAATATCTTTATAGATTTGTTTTTATTTTTATAAAATAAATAAAGAAATCATTTCAATAAAAAAATAACAAAAGAAGAAAATAAAATGGCAAAGACAAACAGTACTA (double strand) [Peno]
Kd ([2]; Hill n 3.1 +/- 0.6): 1000 nM

For at least one entry, the source does not settle the construct or the ends of the probe.
